Assay results from publication PMC10664964, “Structural and functional analysis of vaccinia viral fusion complex component protein A28 through NMR and molecular dynamic simulations” (PLOS Pathogens, 2023).

How the values were obtained:
[1] = target: mpox-H2 (aa 91-189), mpox virus ortholog of H2 (mpox virus) (UniProt P08583); experiment: ITC
[2] = target: T1, vaccinia virus soluble H2 protein, sH2 (residues 91-189) (vaccinia virus, UniProt P08583 91-189); experiment: ITC
T1 sequence: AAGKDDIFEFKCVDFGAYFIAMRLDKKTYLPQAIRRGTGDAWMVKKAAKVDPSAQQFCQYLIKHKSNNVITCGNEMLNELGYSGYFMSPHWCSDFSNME

With “mpox-A30 (aa 56-146), mpox virus ortholog of A28 (domain or fragment)” the Kd [1] was 5.3 µM and the stoichiometry N [1] was 1.

B1: vaccinia virus soluble A28 protein, sA28 (residues 56-146) (domain or fragment)
chain: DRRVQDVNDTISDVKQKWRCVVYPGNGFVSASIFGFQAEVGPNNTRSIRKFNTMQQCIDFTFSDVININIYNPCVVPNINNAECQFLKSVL
B1 was tested, and the Kd [2] was 4.3 µM, the dH [2] was -8.8 kcal/mol and the “stoichiometry N” value [2] was 1.
